Pooled drug test results. Numbers come from NIAID ChemDB, via PubChem.

Shared fields: toxicity to cultured cells; cells: Huh7; measure: CC50

CCn: concentration that lowers growth or viability of the cells by n%. Blank or dashed fields: not listed here. Rows are shuffled and stem from different studies.

structure	method	result
CCC[C@H](NC(=O)[C@@H]1[C@H]2CCC[C@H]2CN1C(=O)[C@@H](NC(=O)[C@@H](NC(=O)c1cnccn1)C1CCCCC1)C(C)(C)C)C(=O)C(=O)NC1CC1	MTT	37 µM
C[C@@]1(O)[C@H](O)[C@@H](CO)O[C@H]1c1cnc2c(N)ncnn12	MTT	34 µM
COC(=O)N[C@H](C(=O)N1CCC[C@H]1c1nc2ccc(-c3csc4c(-c5ccc(-c6cnc([C@@H]7CCCN7C(=O)[C@H](NC(=O)OC)c7ccccc7)[nH]6)cc5)csc34)cc2[nH]1)C(C)C	resazurin	>50 µM
CC(C)OC(=O)[C@H](C)N[P@](=O)(OC[C@H]1O[C@@](C#N)(c2ccc3c(N)ncnn23)[C@](C)(O)[C@@H]1OC(=O)C(C)C)Oc1ccccc1	ATP	>90 µM
CCOC(=O)CCc1ccccc1O[P@@](=O)(N[C@@H](C)C(=O)OC(C)C)OC[C@H]1O[C@@H](n2cnc3c(N)nc(N)nc32)[C@](C)(O)[C@@H]1O	-	>10 µM
N#Cc1c(-c2ccccc2-c2ccco2)nc(SCc2nc3ccccc3[nH]2)[nH]c1=O	MTT	657 µM
CN1CCn2c(c(C3CCCCC3)c3sc(C(=O)O)cc32)-c2ccccc2C1	-	>15.5 µM
N#Cc1c(-c2ccc(F)cc2)nc(SCc2nc3ccccc3[nH]2)[nH]c1=O	MTT	245 µM
O=C(CCCCCCC(=O)Nc1ccccc1)NO	MTS	1.9 µM
Nc1ncnc2c1ccn2[C@@H]1O[C@H](CO)[C@@H](O)[C@H]1O	MTS	>89 µM
CCOC(=O)CCc1ccccc1O[P@@](=O)(N[C@@H](C)C(=O)OCC)OC[C@H]1O[C@@H](n2cnc3c(N)nc(N)nc32)[C@](C)(O)[C@@H]1O	-	>10 µM
O=C(c1nn2c(C(F)(F)F)cc(C3CC3)cc2c1Cl)N1CCC2(OCC3(CC3)CO2)[C@@H](O)C1	ATP	>50 µM
CCOC(=O)[C@H](C)NP(=O)(OC[C@H]1O[C@@H](n2cnc3c(N)nc(N)nc32)[C@](C)(O)[C@@H]1O)Oc1ccccc1CCC(=O)OC(C)C	-	>10 µM
Nc1ccn(C2CCC(C(=O)O)O2)c(=O)n1	XTT	>250 µg/mL
CCOC(=O)CCc1ccccc1OP(=O)(N[C@@H](C)C(=O)OC(C)C)OC[C@H]1O[C@@H](n2cnc3c(N)nc(N)nc32)[C@](C)(O)[C@@H]1O	-	>10 µM
C[C@@]1(O)[C@H](O)[C@@H](CO)O[C@H]1c1ccc2c(=O)[nH]c(N)nn12	MTT	>100 µM
Cc1c(C(=O)O)sc2c(C3CCCCC3)c(-c3ccccc3)n(CC(=O)N(C)C3CCN(C(C)C)C3)c12	-	>3.25 µM
CC(C)[C@@H](C)/C=C/[C@@H](C)[C@H]1CC[C@H]2C3=CC=C4C[C@@H](O)CC[C@]4(C)[C@H]3CC[C@]12C	WST	>4 µg/mL
COC(=O)NC[C@H](C(=O)N1CCCC1c1ncc(-c2ccc(-c3ccc(-c4cnc(C5CCCN5C(=O)[C@@H](NC(=O)OC)C(C)C)[nH]4)cc3)cc2)[nH]1)C(C)C	MTT	>200 µM
C[C@@]1(O)[C@H](O)[C@@H](CO)O[C@H]1c1cnn2c(N)ncnc12	MTT	>100 µM
CN(Cc1ccccc1)Cc1c(C(=O)O)sc2c(C3CCCCC3)c(-c3ccccc3)[nH]c12	-	>85 µM
O=C(c1nn2c(C(F)(F)F)cc(C3CC3)cc2c1Cl)N1CCC2(CC1)OCC(O)CO2	ATP	>50 µM
CN(C)Cc1c(C(=O)O)sc2c(C3CCCCC3)c(-c3ccccc3)[nH]c12	-	>85 µM
O=C(O)c1c(-c2ccc(O)cc2)nc(SCc2nc3ccccc3[nH]2)[nH]c1=O	MTT	656 µM
CC(C)N1CCC(N2CCn3c(c(C4CCCCC4)c4sc(C(=O)O)cc43)-c3ccccc3C2)C1	-	>3.75 µM
O=C(c1nn2c(C(F)(F)F)cc(C3CC3)cc2c1Cl)N1CCC2(CC1)OCC1(CCC1)CO2	ATP	>50 µM
CN1CCN(C(=O)Cn2c(-c3ccccc3)c(C3CCCCC3)c3sc(C(=O)O)cc32)CC1	-	>67.5 µM
O=C(c1nn2c(C(F)(F)F)cc(C3CC3)cc2c1Cl)N1CCC2(OCC3(CC3)CO2)[C@H](O)C1	ATP	>50 µM
O=C(O)c1c(-c2ccccc2)nc(SCc2nc3ccccc3[nH]2)[nH]c1=O	MTT	564 µM
COCn1c(-c2ccccc2)c(C2CCCCC2)c2sc(C(=O)O)c(CNCc3ccccc3)c21	-	>32.5 µM

2 of the rows above, restated:

structure	method	result
O=C(c1nn2c(C(F)(F)F)cc(C3CC3)cc2c1Cl)N1CCC2(OCC3(CC3)CO2)[C@@H](O)C1	ATP	>50 µM
CC(C)OC(=O)[C@H](C)N[P@](=O)(OC[C@H]1O[C@@](C#N)(c2ccc3c(N)ncnn23)[C@](C)(O)[C@@H]1OC(=O)C(C)C)Oc1ccccc1	ATP	>90 µM